Values from PubChem BioAssay AID624099 (ICCB-Longwood, 2012).
Shown is an unselected part of about 21,000 reagents tested. 497 of all reagents (2.4%) count as active. 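Higher z means weaker E2 silencing; only reporter increases were scored, and knock-downs that hurt cell survival may mask genuine repressor factors.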 No sequences are given here.

- Test: 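Host factors E2 relies on to silence an HPV18 LCR reporter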 (primary screen)
- System: human C33A cervical carcinoma cells (HPV-negative) stably expressing BPV1 E2 and an HPV18 LCR luciferase reporter
- Reagents: siRNA pool against human genes, 40 nM
- Duration: 72 h
- Detection: 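Per-well luciferase luminescence, z-scored on each plate against the plate mean and SD with control wells left out, then averaged across three replicate plates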
- Direction: mean z-score and z-score: higher = stronger reporter signal, weaker E2 silencing
- Active means: 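Mean z ≥ 2 together with z ≥ 2 in two or more of the three replicates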

Gene | mean z-score | z-score, replicate A | z-score, replicate B | z-score, replicate C | Call
MEOX2 (GeneID 4223) | 0.53 | 0.73 | 0.36 | 0.49 | inactive
ASS1 (GeneID 445) | -0.41 | -0.13 | -0.17 | -0.92 | inactive
NXPH2 (GeneID 11249) | -0.7 | -0.73 | -0.67 | -0.7 | inactive
OMG (GeneID 4974) | -1.03 | -1.18 | -0.9 | -1.01 | inactive
FGF3 (GeneID 2248) | 0.37 | 0.21 | 0.43 | 0.47 | inactive
B3GLCT (GeneID 145173) | -0.14 | -0.1 | -0.33 | 0 | inactive
HEPH (GeneID 9843) | 1.26 | 1.2 | 1.29 | 1.28 | inactive
ALDH3B2 (GeneID 222) | 0.71 | 0.86 | 0.69 | 0.57 | inactive
KLHL24 (GeneID 54800) | -0.8 | -1 | -0.65 | -0.75 | inactive
PPP1R3F (GeneID 89801) | -1.52 | -1.49 | -1.7 | -1.38 | inactive
SNRNP200 (GeneID 23020) | 0.28 | 0.62 | -0.13 | 0.37 | inactive
LOC391340 (retired record) (GeneID 391340) | 0.71 | 0.56 | 1.01 | 0.56 | inactive
COX5A (GeneID 9377) | 0.73 | 0.96 | 0.63 | 0.61 | inactive
GTF2B (GeneID 2959) | 0.75 | 0.53 | 0.36 | 1.36 | inactive
SEZ6L (GeneID 23544) | 1.04 | 0.86 | 1.01 | 1.24 | inactive
LHX3 (GeneID 8022) | -1.3 | -1.15 | -1.05 | -1.68 | inactive
SKP1 (GeneID 6500) | 2.22 | 2.41 | 2.23 | 2.02 | active
KCNIP1 (GeneID 30820) | -0.45 | -0.4 | -0.56 | -0.4 | inactive
PHLDA2 (GeneID 7262) | -0.55 | -0.62 | -0.47 | -0.57 | inactive
UQCRQ (GeneID 27089) | -0.93 | -0.8 | -1.01 | -0.99 | inactive
CYP2F1 (GeneID 1572) | -0.55 | -0.59 | -0.77 | -0.31 | inactive
LINC01994 (GeneID 401103) | 0.23 | 0.42 | -0.35 | 0.62 | inactive
MUC1 (GeneID 4582) | 0.03 | 0.43 | -0.13 | -0.2 | inactive
KIRREL1 (GeneID 55243) | -0.08 | -0.42 | -0.34 | 0.53 | inactive
PJA1 (GeneID 64219) | 1.24 | 1.25 | 1.42 | 1.05 | inactive
RAD9B (GeneID 144715) | 0.49 | 0.38 | 0.6 | 0.49 | inactive
FLNA (GeneID 2316) | 0.12 | 0.17 | 0.14 | 0.06 | inactive
VHLL (GeneID 391104) | 1.1 | 1.16 | 1.28 | 0.84 | inactive
FAM177B (GeneID 400823) | -0.17 | -0.48 | -0.54 | 0.51 | inactive
ACTL11P (GeneID 389120) | -2.04 | -2.06 | -2.38 | -1.68 | inactive
RPL10P13 (GeneID 390345) | -0.03 | -0.02 | 0 | -0.07 | inactive
MAG (GeneID 4099) | -1.23 | -1.05 | -1.49 | -1.14 | inactive
ABHD13 (GeneID 84945) | 0.65 | 0.68 | 0.68 | 0.58 | inactive

No new results follow: 9 of the entries above.
Gene | mean z-score | z-score, replicate A | z-score, replicate B | z-score, replicate C | Call
SKP1 (GeneID 6500) | 2.22 | 2.41 | 2.23 | 2.02 | active
KCNIP1 (GeneID 30820) | -0.45 | -0.4 | -0.56 | -0.4 | inactive
PHLDA2 (GeneID 7262) | -0.55 | -0.62 | -0.47 | -0.57 | inactive
UQCRQ (GeneID 27089) | -0.93 | -0.8 | -1.01 | -0.99 | inactive
CYP2F1 (GeneID 1572) | -0.55 | -0.59 | -0.77 | -0.31 | inactive
LINC01994 (GeneID 401103) | 0.23 | 0.42 | -0.35 | 0.62 | inactive
MUC1 (GeneID 4582) | 0.03 | 0.43 | -0.13 | -0.2 | inactive
KIRREL1 (GeneID 55243) | -0.08 | -0.42 | -0.34 | 0.53 | inactive
PJA1 (GeneID 64219) | 1.24 | 1.25 | 1.42 | 1.05 | inactive

The listing continues:
Gene | mean z-score | z-score, replicate A | z-score, replicate B | z-score, replicate C | Call
RPLP1P7 (GeneID 133609) | 1.44 | 1.29 | 1.92 | 1.12 | inactive
RBBP9 (GeneID 10741) | 0.71 | 0.98 | 0.84 | 0.32 | inactive
KCNH4 (GeneID 23415) | -0.28 | -0.04 | -0.49 | -0.3 | inactive
TNRC6B (GeneID 23112) | 0.75 | 0.94 | 0.55 | 0.75 | inactive
YBX2 (GeneID 51087) | 0.49 | 0.1 | 0.48 | 0.9 | inactive
FBL (GeneID 2091) | -1.81 | -1.49 | -1.96 | -1.97 | inactive
RPL10AP9 (GeneID 728979) | -1.62 | -1.27 | -1.72 | -1.88 | inactive
TRAPPC13 (GeneID 80006) | 0.25 | 0.4 | 0.44 | -0.09 | inactive
N4BP2 (GeneID 55728) | -0.19 | 0 | -0.41 | -0.16 | inactive
CPLANE1 (GeneID 65250) | -0.52 | -0.04 | -0.52 | -1 | inactive
RPS23P2 (GeneID 391701) | -0.08 | -0.59 | 0.09 | 0.28 | inactive
DIP2B (GeneID 57609) | 1.81 | 1.91 | 1.48 | 2.04 | inactive
ADCY4 (GeneID 196883) | 1.15 | 0.84 | 1.36 | 1.24 | inactive
GORAB (GeneID 92344) | -1.27 | -1.18 | -1.58 | -1.06 | inactive
TBX21 (GeneID 30009) | -0.72 | -0.72 | -0.72 | -0.72 | inactive
LOC100134040 (GeneID 100134040) | -0.62 | -0.59 | -1.05 | -0.24 | inactive
PPP2R5C (GeneID 5527) | 0.17 | 0.08 | 0.28 | 0.13 | inactive
RBP1 (GeneID 5947) | 1.84 | 1.59 | 1.93 | 2 | inactive
COPA (GeneID 1314) | -4.61 | -4.93 | -4.48 | -4.41 | inactive
WFDC12 (GeneID 128488) | -0.9 | -0.99 | -0.78 | -0.93 | inactive
NAA50 (GeneID 80218) | 0.08 | 0.08 | -0.1 | 0.26 | inactive
WHR1 (GeneID 8859) | -1.99 | -1.87 | -2.28 | -1.81 | inactive
FHIP1B (GeneID 84067) | -0.16 | -0.39 | 0.07 | -0.17 | inactive
CEACAM1 (GeneID 634) | -1.09 | -0.91 | -1.59 | -0.76 | inactive
